Measured values published in patent US20060063938A1, “Compounds to treat hiv infection and aids” (priority 2001, published 2006).

Test system: HIV-1
Conditions: tested at 25 μM

SMILES: O=C(C=C(O)c1nnn[nH]1)c1c[nH]c2ccc(Cl)cc12
- antiviral activity in single cycle assay: did not display any antiviral activity
